Source: patent publication US20250064789A1, “KETOAMIDE DERIVATIVES AND PHARMACEUTICAL USES THEREOF” (priority 2022, published 2025)

Molecular target: recombinant SARS-CoV-2 M^pro (Severe acute respiratory syndrome coronavirus 2 (2019-nCoV) (SARS-CoV-2), UniProt P0DTD1)
Test: Inhibition of SARS-CoV-2 M^pro enzyme activity (fluorescent substrate assay)
Format: biochemical
Settings: values in nM

| Structure (SMILES) | IC50 |
| --- | --- |
| O=C(CNC(=O)C1CCCC(F)(F)C1)N[C@H](Cc1ccccc1)C(=O)C(=O)NCc1nccs1 (some centres unmarked) | 62.8 nM |
| COC[C@@H](NC(=O)N1CCC(F)(F)CC1)C(=O)N[C@H](Cc1ccccc1)C(=O)C(=O)NCc1nccs1 | 66.1 nM |
